Anti-infective test results gathered from many reports (values: NIAID ChemDB through PubChem).

Common to all: cytotoxicity tests; cell line: MT-4; measure: CC50

An empty or dashed field is not shown. CCn is the concentration with n% toxicity to the cells. Lines come from different laboratories, so protocols vary.

structure,method,value
C[C@@H](NS(=O)(=O)c1ccc(Cl)cc1)C(=O)NN,-,113 µg/mL
CCc1nc([N+](=O)[O-])c(N2CCN(C(=O)CSC)CC2)n1Cc1ccccc1.c1ccc2ccccc2c1,-,12.69 µg/mL
NC(=O)CC[C@H](NC(=O)COc1ccc(NC(=O)[C@@H](N)Cc2ccc(O)cc2)cc1)C(=O)N[C@@H](Cc1c[nH]c2ccccc12)C(=O)N[C@@H](CC(=O)O)C(=O)N[C@@H](Cc1ccccc1)C(=O)NCC(=O)O,-,>1000 µg/mL
CC(C)[C@H](NC(=O)OC(C)(C)C)C(=O)N(Cc1ccccc1)CC(O)C(Sc1ccccc1)N(Cc1ccccc1)C(=O)[C@@H](NC(=O)OC(C)(C)C)C(C)C,-,50 µM
CCc1nc([N+](=O)[O-])c(N2CCN(C(=O)c3cccs3)CC2)n1Cc1ccccc1,-,58.93 µg/mL
CCCCCCCCCCCCCCCCCCCCCCOCCCO[C@@H]1O[C@H](COS(=O)(=O)O)[C@@H](O[C@@H]2O[C@H](COS(=O)(=O)O)[C@H](OS(=O)(=O)O)[C@H](OS(=O)(=O)O)[C@H]2OS(=O)(=O)O)[C@H](OS(=O)(=O)O)[C@H]1OS(=O)(=O)O,-,>100 µg/mL
N#C/C(=C\c1c(Cl)cccc1Cl)n1nnc2ccccc21,-,5 µM
Cc1cccc(Nc2ccccc2C(=O)Nc2ccc(C(=O)/C=C/c3ccc(Br)cc3)cc2)c1C,MTT / absorbance,12.68 µM
Cn1cc(C(=O)O)c(=O)c2cc(N)c(N3CCN(c4ccccn4)CC3)nc21,MTT,51.86 µM
Cc1cccc(Nc2ccccc2C(=O)Nc2ccc(-c3cc(-c4ccccc4)nc(=S)[nH]3)cc2)c1C,MTT / absorbance,>13.9 µM
N#C/C(=C\c1ccc(Cl)cc1Cl)n1nnc2ccccc21,-,6 µM
CCc1cccc(N2C(=O)CSC2c2c(Cl)cccc2Cl)c1,-,28.95 µM
CCCCCCCCCCCCOCCO[C@@H]1O[C@H](COS(=O)(=O)O)[C@@H](OS(=O)(=O)O)[C@H](OS(=O)(=O)O)[C@H]1OS(=O)(=O)O,-,>100 µg/mL
CCc1nc([N+](=O)[O-])c(N2CCN(C(=O)CS(=O)(=O)c3cccc4ccccc34)CC2)n1Cc1ccccc1,-,30.23 µg/mL
O=C1CSC(c2c(F)cccc2F)N1c1cccc(Br)c1,-,32.68 µM
CCC(C)Sc1nc(Cc2cccc3ccccc23)cc(=O)[nH]1,-,>200 µM
CCc1nc([N+](=O)[O-])c(N2CCN(C(=O)CCc3c[nH]c4ccccc34)CC2)n1Cc1ccccc1,-,19.73 µg/mL
NC(=O)/C(=C\c1ccccc1)n1nnc2ccccc21,-,11 µM
CCC(C)Sc1nc(Cc2ccccc2C(F)(F)F)cc(=O)[nH]1,-,200 µM
Cc1cccc(Nc2ccccc2C(=O)Nc2ccc(-c3cc(-c4ccc(N(C)C)cc4)nc(=S)[nH]3)cc2)c1C,MTT / absorbance,>7.02 µM
CCc1nc([N+](=O)[O-])c(N2CCN(C(=O)c3ccc(F)cc3)CC2)n1Cc1ccccc1,-,64.53 µg/mL
Nn1cc(C(=O)O)c(=O)c2ccc(N3CCN(c4nc5ccccc5s4)CC3)nc21,MTT,23.77 µM
CCCCCCCCCCCCCCOCC(COCCCCCCCCCCCCCC)CO[C@@H]1O[C@H](COS(=O)(=O)O)[C@H](OS(=O)(=O)O)[C@H](OS(=O)(=O)O)[C@H]1OS(=O)(=O)O,-,>100 µg/mL
CCc1c(Oc2cc(C)cc(C)c2)n(Cc2ccncc2)c(=O)[nH]c1=O,MTT,>100 µg/mL
O=C1CSC(c2c(F)cccc2Cl)N1c1cc(F)cc(F)c1,-,33.45 µM
Nc1ncnc2c1ncn2[C@H]1CC[C@](CCP(=O)(O)O)(C(F)(F)F)C1,MTT,95 µM
CCC(C)Sc1nc(Cc2ccccc2)c(C)c(=O)[nH]1,-,86 µM
O=C1C=CC(=C(c2ccc(O)cc2)c2ccc(O)cc2)C=C1,-,2.6 µM
CCCCCCCCCCCCCCOCC(COCCCCCCCCCCCCCC)CO[C@@H]1O[C@H](COS(=O)(=O)O)[C@@H](OS(=O)(=O)O)[C@H](OS(=O)(=O)O)[C@H]1OS(=O)(=O)O,-,>100 µg/mL
Cc1cc(Cl)cc(C(=O)c2c(C(C)C)c(=O)[nH]c(=O)n2Cc2ccncc2)c1,MTT,55.07 µg/mL
Fc1cccc(F)c1Cn1c(=S)[nH]c2cccnc21,-,>125 µg/mL
N#C/C(=C\c1ccc[nH]1)n1nc2ccccc2n1,-,>100 µM
COc1cccc(N2C(=O)CSC2c2c(Cl)cccc2Cl)c1,-,32.74 µM
C=Cn1cc(C(=O)O)c(=O)c2ccc(N3CCN(c4nc5ccccc5o4)CC3)nc21,MTT,18.3 µM
CCc1c(C(=O)c2cc(C)cc(C)c2)n(Cc2ccnc(Cl)c2)c(=O)[nH]c1=O,MTT,8.7 µg/mL
COC(=O)C(CC(C)C)NC(=O)CCCN1C(=O)c2ccccc2C1=O,MTT,10.89 µM
COc1ccc(-c2nnc(-c3ccc(N)cc3)o2)cc1,-,99 µg/mL
N#C/C(=C/c1cccc(Br)c1)n1nnc2ccccc21,-,3 µM
Cc1ccnc2c1[nH]c(=S)n2Cc1c(F)cccc1F,-,0.083 µg/mL
CCCCCCCCCCCCCCCCCCCCCCOCCCO[C@@H]1O[C@H](COS(=O)(=O)O)[C@@H](OS(=O)(=O)O)[C@H](OS(=O)(=O)O)[C@H]1OS(=O)(=O)O,-,>100 µg/mL
CN(C(=O)N(Cc1ccccc1)CC(O)C(Sc1ccccc1)N(Cc1ccccc1)C(=O)N(C)c1ccccc1)c1ccccc1,-,50 µM
COC(=O)C(Cc1c[nH]c2ccccc12)NC(=O)CCCN1C(=O)c2ccccc2C1=O,MTT,29.61 µM
CC(C)COC12CCC(C(=O)C1)C1C(=O)N(CCCCN3CCN(c4ccccc4)CC3)C(=O)C12,MTT,84 µM
Cc1cc(C)cc(C(=O)c2c(C(C)C)c(=O)[nH]c(=O)n2Cc2ccnc(C#N)c2)c1,MTT,9.15 µg/mL
C=Cn1cc(C(=O)O)c(=O)c2ccc(N3CCN(c4ccccn4)CC3)nc21,MTT,16.66 µM
N#C/C(=C\c1cccc(I)c1)n1nnc2ccccc21,-,3 µM
Cc1cc(CF)cc(C(=O)c2c(C(C)C)c(=O)[nH]c(=O)n2Cc2ccncc2)c1,MTT,92.8 µg/mL
Cc1cccc(N2C(=O)CSC2c2c(C(F)(F)F)ccc(Cl)c2F)n1,-,121.5 µM
C=Cn1cc(C(=O)O)c(=O)c2ccc(N3CCN(c4cccc(C(F)(F)F)c4)CC3)nc21,MTT,120 µM
Cc1cc(C)nc(N2C(=O)CSC2c2c(F)cccc2F)c1,-,64.1 µM
CCOP(=O)(/C=C/[C@]1(C(F)(F)F)CC[C@H](n2cnc3c(N)ncnc32)C1)OCC,MTT,98 µM
CC[C@@H](NS(=O)(=O)c1ccc(Cl)cc1)c1n[nH]c(=S)o1,-,125 µg/mL
CCc1nc([N+](=O)[O-])c(N2CCN(C(=O)CSc3ccccc3)CC2)n1Cc1ccccc1,-,4.17 µg/mL
Cc1cc(C(=O)c2c(C(C)C)c(=O)[nH]c(=O)n2Cc2ccncc2)cc([N+](=O)[O-])c1,MTT,46 µg/mL
CCc1nc([N+](=O)[O-])c(N2CCN(C(=O)c3ccc(Cl)cc3)CC2)n1Cc1ccccc1,-,31.67 µg/mL
CC(C)c1c(C(=O)c2cc(C(F)(F)F)cc(C(F)(F)F)c2)n(Cc2ccccn2)c(=O)[nH]c1=O,MTT,11.7 µg/mL
CC(C)[C@H](N)C(=O)N(Cc1ccccc1)CC(O)C(Sc1ccccc1)N(Cc1ccccc1)C(=O)[C@@H](N)C(C)C,-,50 µM
Cc1cn([C@H]2C[C@H](N=[N+]=[N-])[C@@H](CO)O2)c(=O)[nH]c1=O,MTT / absorbance,>25 µM
Cc1cccc(N2C(=O)CSC2c2c(F)cccc2Cl)c1,-,32.44 µM
COc1ccc(S(=O)(=O)NCCCc2n[nH]c(=S)o2)cc1,-,125 µg/mL
CC(C)[C@H](NC(=O)OCc1ccccc1)C(=O)NC(Sc1ccccc1)C(O)C(NC(=O)[C@@H](NC(=O)OCc1ccccc1)C(C)C)Sc1ccccc1,-,50 µM
COC(=O)C(CS)NC(=O)CCCN1C(=O)c2ccccc2C1=O,MTT,60.33 µM
Cc1ccnc(N2C(=O)CSC2c2c(F)ccc(C)c2Cl)n1,-,155.9 µM
Fc1cccc(F)c1Cn1c(=S)[nH]c2ccccc21,-,>25 µg/mL
CCOP(=O)(CC[C@]1(C(F)(F)F)CC[C@H](n2cnc3c(N)ncnc32)C1)OCC,MTT,98 µM
CC(C)c1c(C(=O)c2cc(C(F)(F)F)cc(C(F)(F)F)c2)n(Cc2ccncc2)c(=O)[nH]c1=O,MTT,44.9 µg/mL
O=C1CSC(c2c(Cl)cccc2Cl)N1c1cc(F)cc(F)c1,-,43.31 µM

6 of the rows above, restated:

structure | method | value
Cc1ccnc(N2C(=O)CSC2c2c(F)ccc(C)c2Cl)n1 | - | 155.9 µM
C[C@@H](NS(=O)(=O)c1ccc(Cl)cc1)C(=O)NN | - | 113 µg/mL
CCCCCCCCCCCCCCCCCCCCCCOCCCO[C@@H]1O[C@H](COS(=O)(=O)O)[C@@H](O[C@@H]2O[C@H](COS(=O)(=O)O)[C@H](OS(=O)(=O)O)[C@H](OS(=O)(=O)O)[C@H]2OS(=O)(=O)O)[C@H](OS(=O)(=O)O)[C@H]1OS(=O)(=O)O | - | >100 µg/mL
CCOP(=O)(/C=C/[C@]1(C(F)(F)F)CC[C@H](n2cnc3c(N)ncnc32)C1)OCC | MTT | 98 µM
Cc1cc(CF)cc(C(=O)c2c(C(C)C)c(=O)[nH]c(=O)n2Cc2ccncc2)c1 | MTT | 92.8 µg/mL
COc1ccc(S(=O)(=O)NCCCc2n[nH]c(=S)o2)cc1 | - | 125 µg/mL